The source of these data is article PMC10169850.

This data set concerns the target T1, Fnr-His6 (Salmonella enterica serovar Typhimurium 14028S) (UniProt P0A2T8).
T1 sequence (looked up, limits assumed): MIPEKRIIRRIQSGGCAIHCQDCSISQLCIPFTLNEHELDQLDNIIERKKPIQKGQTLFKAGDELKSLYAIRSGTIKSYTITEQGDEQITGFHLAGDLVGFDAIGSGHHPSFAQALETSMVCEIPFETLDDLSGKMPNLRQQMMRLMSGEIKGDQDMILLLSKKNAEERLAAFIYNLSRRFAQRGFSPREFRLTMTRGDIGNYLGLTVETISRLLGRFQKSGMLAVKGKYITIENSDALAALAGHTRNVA
In words: EMSA. The conditions noted are these: low O2, Fnr 0-20 uM, 20 mM Tris-HCl pH 7.5, 80 mM NaCl, 0.1 mM EDTA, 1 mM DTT, 5% glycerol, recombinant protein, protein details: His6, label: none (ethidium bromide stain), probe letters rebuilt from the primers and the genome. Background: Mobility shift assays separate free from complexed probe on a gel.

Construct, isoform or probe ends are uncertain for at least one entry. Tags and fusion partners may be left off the protein sequences shown.

Regarding “TTATCCTGCCAGCCTTCGCGCGCGGTTAACACCAGAACCGGCAGTGAAACATCACTGCTGCGCCAGCGGCGTATTAAGGAAAGGCCGTCTTCATCCGGCAGACCTAAATCGACAATAGCGATATCCGGAAGGTGTTCATTAAGGTAGTAATCAGCTTCCCTGGCATCTTCTGCGGCATCGACCTGGTGACCTGAATCCTGGAGCTGAACCTTCAGGTGGTGGCGTAATAATGCATTATCCTCTACAACCAGTACGCGCATCATCTCTTCTCCCTTGTGTTAACAATAAGAACAGTCTAGCGTTGATTATGGTGCTTTGGGGATAAACAGTTAATAAACCAGACAAATAGTCACCCTCTTTCTGAAGAAAAGAGGGTGAGGCAGGCATTATTTAAGTTCGTCGACCAGAGTCACAGCGCGACCGATATAATTTGCCGGCGTCATGGCTTTAAGGCGCGTTTTTTCTGCTTCCGGCAGGGCCAGACTATCAATAAACTGTTTCATTCCTTCGGC (double strand) [phoPQ promoter]”, the binding result is “binds”.
